Laboratory results published in publication PMC6127270 (Frontiers in Pharmacology, 2018).

By UniProt entry, the sequences of proteins in these tests, tags left out.
UniProt P33535, whole entry: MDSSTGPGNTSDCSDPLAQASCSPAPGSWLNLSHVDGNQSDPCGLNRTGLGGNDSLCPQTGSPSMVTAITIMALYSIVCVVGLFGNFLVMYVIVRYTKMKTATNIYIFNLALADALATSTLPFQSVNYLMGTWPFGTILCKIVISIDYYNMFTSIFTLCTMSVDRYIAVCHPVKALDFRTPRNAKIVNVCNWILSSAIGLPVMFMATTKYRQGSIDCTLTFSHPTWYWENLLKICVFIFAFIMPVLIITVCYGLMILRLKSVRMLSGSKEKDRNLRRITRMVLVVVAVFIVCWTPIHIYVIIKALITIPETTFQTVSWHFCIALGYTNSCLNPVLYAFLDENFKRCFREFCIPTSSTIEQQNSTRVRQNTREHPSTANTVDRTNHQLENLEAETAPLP

Molecular target: T1, MOR (Rattus norvegicus, UniProt P33535)
T1 construct: Membranes were prepared from Sprague–Dawley rat brains or guinea-pig brains; from tissue; host or cells: Sprague-Dawley rat brain
Assay: Competition binding, [3H]DAMGO, rat brain membranes
Details: ratio of Ki values

CO[C@@]12CCC(=O)[C@@H]3Oc4c(O)ccc5c4[C@@]31CCN(C)[C@@H]2C5 [14-OMO, 14-O-methyloxymorphone, reference compound]
Selectivity KOR/MOR: 102
